Laboratory results: PubChem BioAssay AID624099 (ICCB-Longwood, 2012)
Assay: 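Human genes that papillomavirus E2 requires to repress the HPV18 LCR promoter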 (primary screen). System: human C33A cervical carcinoma cells (HPV-negative) stably expressing BPV1 E2 and an HPV18 LCR luciferase reporter. Knock-down reagent: siRNA pool against human genes, 40 nM. Duration: 72 h. Measurement: 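HPV18 LCR reporter light per well, converted to plate-wise z-scores that exclude control wells, and averaged over triplicate plates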. Direction: mean z-score and z-score: higher = stronger reporter signal, weaker E2 silencing. Hit rule: 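Mean z ≥ 2 together with z ≥ 2 in two or more of the three replicates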.
The whole screen tested about 21,000 reagents; below is a part drawn at random. In the full data, 497 (2.4%) are marked active. 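Higher z means weaker E2 silencing; only reporter increases were scored, and knock-downs that hurt cell survival may mask genuine repressor factors.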 Reagent sequences are not shown.

For INTS6L, how do the results read?
mean z-score: -1.94; z-score, replicate A: -2.07; z-score, replicate B: -1.87; z-score, replicate C: -1.89; Outcome: inactive

What is on record for LOC390256 (retired record)?
mean z-score: 0.69; z-score, replicate A: 1.03; z-score, replicate B: 0.41; z-score, replicate C: 0.61; Outcome: inactive

How did the screen score ATAD1?
mean z-score: 1.25; z-score, replicate A: 1.5; z-score, replicate B: 1.08; z-score, replicate C: 1.18; Outcome: inactive

For CD274, what was measured?
mean z-score: 0.89; z-score, replicate A: 1.17; z-score, replicate B: 0.71; z-score, replicate C: 0.78; Outcome: inactive

What did the screen give for ZNF215?
mean z-score: -0.21; z-score, replicate A: -0.1; z-score, replicate B: -0.33; z-score, replicate C: -0.19; Outcome: inactive

How did the screen score CYB561A3?
mean z-score: 0.02; z-score, replicate A: 0.36; z-score, replicate B: -0.29; z-score, replicate C: 0; Outcome: inactive

What is on record for TMEM260?
mean z-score: 0.18; z-score, replicate A: -0.1; z-score, replicate B: -0.07; z-score, replicate C: 0.72; Outcome: inactive

For ZBTB14, what does the deposit list?
mean z-score: -0.08; z-score, replicate A: 0.05; z-score, replicate B: -0.23; z-score, replicate C: -0.07; Outcome: inactive

With AASS, how do the results read?
mean z-score: 1.62; z-score, replicate A: 1.81; z-score, replicate B: 1.62; z-score, replicate C: 1.42; Outcome: inactive

For C2orf74-DT, how do the results read?
mean z-score: -0.34; z-score, replicate A: -0.55; z-score, replicate B: -0.39; z-score, replicate C: -0.09; Outcome: inactive

With NUB1, what was measured?
mean z-score: -0.66; z-score, replicate A: -0.67; z-score, replicate B: -0.75; z-score, replicate C: -0.56; Outcome: inactive

What is on record for NUMA1?
mean z-score: 0.92; z-score, replicate A: 0.56; z-score, replicate B: 0.66; z-score, replicate C: 1.53; Outcome: inactive

With KMT2D, what was measured?
mean z-score: -1.22; z-score, replicate A: -1.1; z-score, replicate B: -1.45; z-score, replicate C: -1.11; Outcome: inactive

With GNAT2, what was measured?
mean z-score: -0.43; z-score, replicate A: -0.54; z-score, replicate B: -0.16; z-score, replicate C: -0.58; Outcome: inactive

What is on record for NUDCD2?
mean z-score: 0.37; z-score, replicate A: 0; z-score, replicate B: 0.64; z-score, replicate C: 0.49; Outcome: inactive

For RAB3D, what was measured?
mean z-score: 1.09; z-score, replicate A: 1.01; z-score, replicate B: 1.13; z-score, replicate C: 1.12; Outcome: inactive

For MRNIP, how do the results read?
mean z-score: 0.67; z-score, replicate A: 0.09; z-score, replicate B: 0.98; z-score, replicate C: 0.94; Outcome: inactive

With TARS3, what does the deposit list?
mean z-score: 1.26; z-score, replicate A: 1.21; z-score, replicate B: 1.61; z-score, replicate C: 0.95; Outcome: inactive

For MYO18B, what does the deposit list?
mean z-score: 1.06; z-score, replicate A: 1.18; z-score, replicate B: 0.89; z-score, replicate C: 1.1; Outcome: inactive

With LOC389147 (retired record), what was measured?
mean z-score: 1.47; z-score, replicate A: 2.15; z-score, replicate B: 1.39; z-score, replicate C: 0.85; Outcome: inactive

How did the screen score ZNF154?
mean z-score: -0.99; z-score, replicate A: -0.92; z-score, replicate B: -1.11; z-score, replicate C: -0.94; Outcome: inactive

3 entries already listed, ordered by “z-score, replicate B”, highest first:
ATAD1 → mean z-score: 1.25; z-score, replicate A: 1.5; z-score, replicate B: 1.08; z-score, replicate C: 1.18; Outcome: inactive
CD274 → mean z-score: 0.89; z-score, replicate A: 1.17; z-score, replicate B: 0.71; z-score, replicate C: 0.78; Outcome: inactive
ZNF215 → mean z-score: -0.21; z-score, replicate A: -0.1; z-score, replicate B: -0.33; z-score, replicate C: -0.19; Outcome: inactive
